Anti-infective test results gathered from many reports (values: NIAID ChemDB through PubChem).

Shared fields: whole-cell or culture tests; agent: Mycobacterium smegmatis; read by: agar; read-out: MIC

Lines come from different laboratories, so protocols vary. An empty or dashed field is not shown.

compound,strain,result
CCC1OC(c2ccncc2)=NN1C(C)=O,-,>100 µg/mL
COc1c(N2CCC(N3CCCCC3)CC2)c(F)c([N+](=O)[O-])c2c(=O)c(C(=O)O)cn(C3CC3)c12,ATCC 14468,12.79 µM
O=C(O)c1c2n(c3cc(N4CCN(C(=O)C5COc6ccccc6O5)CC4)c(F)cc3c1=O)CS2,ATCC 14468 MC2,50.25 µM
CC1COc2c(N3CCN(C(c4ccccc4)c4ccc(Cl)cc4)CC3)c(F)c([N+](=O)[O-])c3c(=O)c(C(=O)O)cn1c23,ATCC 14468,0.66 µM
O=C(O)c1c2n(c3cc(F)c(N4CCC(N5CCCCC5)CC4)cc3c1=O)CS2,ATCC 14468,120 µM
O=C(O)c1c2n(c3cc(N4CCC5(CC4)OCCO5)c(F)cc3c1=O)CS2,ATCC 14468 MC2,63.71 µM
O=C(O)c1cn2c(n1)CN(c1cc3c(=O)c(C(=O)O)c4n(c3cc1[N+](=O)[O-])CS4)CC2,ATCC 14468,14.09 µM
COc1c(N2CCC3(CC2)OCCO3)c(F)c([N+](=O)[O-])c2c(=O)c(C(=O)O)cn(C3CC3)c12,ATCC 14468,6.75 µM
O=C(O)c1c2n(c3cc(N4CCN(C(=O)C5COc6ccccc6O5)CC4)c([N+](=O)[O-])cc3c1=O)CS2,ATCC 14468 MC2,47.66 µM
COc1c(N2CCN(C)C(c3ccccc3)C2)c(F)cc2c(=O)c(C(=O)O)cn(C3CC3)c12,ATCC 14468,27.69 µM
O=C(O)c1c2n(c3cc(F)c(N4CCN(Cc5ccc6c(c5)OCO6)CC4)cc3c1=O)CS2,ATCC 14468,53.25 µM
O=C(O)c1c2n(c3cc(N4CCSCC4)c(F)cc3c1=O)CS2,ATCC 14468 MC2,70.94 µM
CCCCCCCCCCCC1OC(c2ccncc2)=NN1C(C)=O,-,6 µg/mL
Cc1onc(-c2c(F)cccc2F)c1C(=O)N1CCN(c2cc3c(=O)c(C(=O)O)c4n(c3cc2[N+](=O)[O-])CS4)CC1,ATCC 14468,5.36 µM
Cc1onc(-c2c(F)cccc2F)c1C(=O)N1CCN(c2cc3c(cc2F)c(=O)c(C(=O)O)c2n3CS2)CC1,ATCC 14468 MC2,89.85 µM
COc1c(N2CCn3cc(C(=O)O)nc3C2)c(F)c([N+](=O)[O-])c2c(=O)c(C(=O)O)cn(C3CC3)c12,ATCC 14468,6.42 µM
O=C(O)c1c2n(c3cc(F)c(N4CCC5(CC4)OCCO5)cc3c1=O)CS2,ATCC 14468,63.71 µM
COc1cc2c(cc1OC)CN(c1cc3c(cc1F)c(=O)c(C(=O)O)c1n3CS1)CC2,ATCC 14468 MC2,113 µM
COc1c(N2CCN(Cc3ccc4c(c3)OCO4)CC2)c(F)c(N)c2c(=O)c(C(=O)O)cn(C3CC3)c12,ATCC 14468,6.13 µM

3 of the rows above, restated:

compound,strain,result
COc1c(N2CCN(Cc3ccc4c(c3)OCO4)CC2)c(F)c(N)c2c(=O)c(C(=O)O)cn(C3CC3)c12,ATCC 14468,6.13 µM
COc1c(N2CCC(N3CCCCC3)CC2)c(F)c([N+](=O)[O-])c2c(=O)c(C(=O)O)cn(C3CC3)c12,ATCC 14468,12.79 µM
COc1cc2c(cc1OC)CN(c1cc3c(cc1F)c(=O)c(C(=O)O)c1n3CS1)CC2,ATCC 14468 MC2,113 µM